This note sets out measurements from publication PMC9579337.

The target in test [1] is TSG-6 (tumor necrosis factor alpha stimulated gene/protein 6), recombinant human, Trp18-Leu277, C-terminal 10-His tag (human) (UniProt P98066).
The target is the same in test [2]. The test is described as follows: AlphaScreen or HTRF; competition: end-biotinylated 50 kDa HA (0.2 nM final), His-TSG-6 (14 nM final) and increasing unlabelled PRG4 premixed 2 h at room temperature in PBS-T, then nickel chelate acceptor beads and streptavidin donor beads; the signal reports HA-TSG-6 binding. (In general: Alpha assays give light when donor and acceptor beads are brought close together.)

As a reminder, the IC50 is the midpoint of a concentration-inhibition curve. “Full length recombinant human Proteoglycan 4 (PRG4, lubricin) (from UniProt Q92954 25-1404) (natural protein)”: in test [1], the PRG4 concentration that halves the AlphaLISA signal of TSG-6-mediated HA crosslinking (1 nM bHA, 150 nM TSG-6) came out at 1 nM. Further, in test [2], the IC50 lay within 5 to 10 nM.
